SMILES strings stand for the structures. “Also recorded” adds a separate entry of the source.

The first data set relates to ArrMab. Description: LC-MS in vitro ADP-ribosylation assay with recombinant ArrMab. The settings on record: incubation with ArrMab and NAD+, 40 minutes.
As for `CO[C@H]1/C=C/O[C@@]2(C)Oc3c(C)c(O)c4c(c3C2=O)C2=NC3(CCN(CC(C)C)CC3)NC2=C(NC(=O)/C(C)=C\C=C\[C@H](C)[C@H](O)[C@@H](C)[C@@H](O)[C@@H](C)[C@H](OC(C)=O)[C@@H]1C)C4=O` [rifabutin, reference compound], the “ADP-ribosylation by ArrMab” value is “completely converted; also recorded: fully ADP-ribosylated”.

On to `CCC(CC)C(=O)O[C@H]1[C@H](C)[C@H](O)[C@H](C)[C@@H](O)[C@@H](C)/C=C/C=C(\C)C(=O)NC2=C3NC4(CCN(CC(C)C)CC4)N=C3c3c(c(O)c(C)c4c3C(=O)[C@@](C)(O/C=C/[C@H](OC)[C@H]1C)O4)C2=O` [5l], for which the “ADP-ribosylation by ArrMab” value is “fully converted; also recorded: failed to block ADP-ribosylation”.

`CCC(C)C(=O)OC1C(C)C(OC)C=COC2(C)Oc3c(C)c(O)c4c(c3C2=O)C2=NC3(CCN(CC(C)C)CC3)NC2=C(NC(=O)C(C)=CC=CC(C)C(O)C(C)C(O)C1C)C4=O` (mixture of isomers) [5k]: the “ADP-ribosylation by ArrMab” value is “fully converted; also recorded: failed to block ADP-ribosylation”. Turning to `CO[C@H]1/C=C/O[C@@]2(C)Oc3c(C)c(O)c4c(c3C2=O)C2=NC3(CCN(CC(C)C)CC3)NC2=C(NC(=O)/C(C)=C/C=C/[C@H](C)[C@H](O)[C@@H](C)[C@@H](O)[C@@H](C)[C@H](OC(=O)c2cccnc2)[C@@H]1C)C4=O` [5m, 25-O-(3-pyridinecarbonyl)-25-O-desacetyrifabutin], the “ADP-ribosylation by ArrMab” value is recorded as “No ADP-ribosylated adducts were observed”. For `CO[C@H]1/C=C/O[C@@]2(C)Oc3c(C)c(O)c4c(c3C2=O)C2=NC3(CCN(CC(C)C)CC3)NC2=C(NC(=O)/C(C)=C/C=C/[C@H](C)[C@H](O)[C@@H](C)[C@@H](O)[C@@H](C)[C@H](OC(=O)c2ccccc2)[C@@H]1C)C4=O` [5a, 25-O-benzoyl rifabutin], the “ADP-ribosylation by ArrMab” value is listed as “no ArrMab-catalyzed transformation was observed; also recorded: No ADP-ribosylated adducts were observed”.

Staying with this data set, now noted: incubation with ArrMab and NAD+, 40 minutes; listed as Rifabutin.
Regarding `CO[C@H]1/C=C/O[C@@]2(C)Oc3c(C)c(O)c4c(c3C2=O)C2=NC3(CCN(CC(C)C)CC3)NC2=C(NC(=O)/C(C)=C\C=C\[C@H](C)[C@H](O)[C@@H](C)[C@@H](O)[C@@H](C)[C@H](OC(C)=O)[C@@H]1C)C4=O` [rifabutin, reference compound], the “ADP-ribosylation by ArrMab” value is given as “fully converted into the ADP-ribosyl adduct”.

The record behind these values is patent publication US20260109712A1, “RIFAMYCINS FOR NONTUBERCULOUS MYCOBACTERIA” (priority 2022, published 2026).
